Anti-infective test results gathered from many reports (values: NIAID ChemDB through PubChem).

Shared fields: tests in culture; organism: Hepatitis C virus

Neighbouring rows are from separate reports.

SMILES	endpoint	tested at	cell line	changes	strain	read by	value
CC1(C)CC(=O)C2=C(C1)Nc1c(O)cccc1N(C(=O)CCC(=O)NC1CCOC1=O)C2c1ccc(OCc2ccccc2)cc1Cl	EC50				1b	luciferase / reporter gene / replicon	>100 µM
NC(=S)Nc1cccc(OCCCCCOc2cccc3cnccc23)c1	EC50		Ava5-EG(delta4AB)SEAP			reporter gene / fluorescence	0.001–1 µM
CC1CCC(C(=O)N(c2cc(C#CC(C)(C)C)sc2C(=O)O)C2CCC(O)CC2)CC1	fold resistance		Huh7	A486V	H77 (GT1a)	luciferase	48.5
COCCCNC(=S)Nc1ccc2c(c1)Cc1cc(Br)ccc1-2	EC50		Ava5-EG(delta4AB)SEAP			reporter gene / fluorescence	0.001–1 µM
Cc1cc(OCc2ccccc2)ccc1C1C2=C(CC(C)(C)CC2=O)Nc2c(O)cccc2N1C(=O)C(C)C	EC50				1b	luciferase / reporter gene / replicon	1.65 µM
NC(=S)Nc1cccc(NCCCCCCc2ccccc2)c1	EC50		Ava5-EG(delta4AB)SEAP			reporter gene / fluorescence	0.001–1 µM
CC1(C)CC(=O)C2=C(C1)Nc1c(O)cccc1NC2c1cc(F)c(OCc2ccccc2)c(F)c1	EC50				1b	luciferase / reporter gene / replicon	16.62 µM
O=C(Nc1cccnc1Oc1ccccc1)C1CCN(Cc2ccc(-c3ccc(Cl)s3)cc2)CC1	inhibition	5 µM	Huh7		JFH-1	PCR	≥40%
CC1(C)CC(=O)C2=C(C1)Nc1c(O)cccc1N(C(=O)c1ccc(C#N)cc1)[C@H]2c1ccc(OCc2ccccc2)cc1F	EC50				1b	luciferase / reporter gene / replicon	2.08 µM
O=C(N[C@@H](C(=O)N1CCC[C@H]1c1ncc(-c2ccc(-c3ccc(-c4cnc([C@@H]5CCCN5C(=O)[C@H](NC(=O)C5CC5)c5ccccc5)s4)cc3)cc2)s1)c1ccccc1)C1CC1	fold resistance		Huh7.5	Y93N	genotype 1b	luciferase / reporter gene	2547
COc1cccc(-c2ccccc2NC(=O)C2CCN(Cc3ccc(F)cc3OC)CC2)c1	inhibition	15 µM	Huh7		JFH-1	PCR	≥40%
CC1(C)CC(=O)C2=C(C1)Nc1c(O)cccc1N(C(=O)NCC(=O)N1CCCC1)C2c1ccc(OCc2ccccc2)cc1Cl	EC50				1b	luciferase / reporter gene / replicon	18.94 µM
COC(=O)N[C@H](C(=O)N1CCCC1c1ncc(-c2ccc(-c3ccc(-c4cnc([C@@H]5CC(C)CN5C(=O)[C@@H](NC(=O)CO)C(C)C)[nH]4)cc3)cc2)[nH]1)C(C)C	EC50		ET		1b	luciferase	0.0000078 µM
O=C(Nc1cccc(-c2cc3ccccc3[nH]2)c1)C1CCN(COc2cncs2)CC1	inhibition	15 µM	Huh7		JFH-1	PCR	≥40%
COc1ccc(OCCCCCOc2cccc(NC(N)=S)c2)cc1OC	EC50		Ava5-EG(delta4AB)SEAP			reporter gene / fluorescence	0.001–1 µM
O=C(Nc1cccc(-c2ccco2)c1)C1CCN(Cc2nc3ccc(F)cc3[nH]2)CC1	inhibition	15 µM	Huh7		JFH-1	PCR	<40%
NC(=S)Nc1cccc(NCCCCCCCCc2ccccc2)c1	EC50		Ava5-EG(delta4AB)SEAP			reporter gene / fluorescence	0.001–1 µM
CCc1ccc(CN2CCC(C(=O)Nc3ccc(-c4nc5ccccc5[nH]4)cc3)CC2)o1	inhibition	5 µM	Huh7		JFH-1	PCR	≥40%
CC(C)CNC(=S)Nc1ccc2c(c1)Cc1cc(Br)ccc1-2	EC50		Ava5-EG(delta4AB)SEAP			reporter gene / fluorescence	0.001–1 µM

A second listing of 3 rows from above:

SMILES | endpoint | tested at | cell line | changes | strain | read by | value
Cc1cc(OCc2ccccc2)ccc1C1C2=C(CC(C)(C)CC2=O)Nc2c(O)cccc2N1C(=O)C(C)C | EC50 |  |  |  | 1b | luciferase / reporter gene / replicon | 1.65 µM
CC1(C)CC(=O)C2=C(C1)Nc1c(O)cccc1NC2c1cc(F)c(OCc2ccccc2)c(F)c1 | EC50 |  |  |  | 1b | luciferase / reporter gene / replicon | 16.62 µM
CC(C)CNC(=S)Nc1ccc2c(c1)Cc1cc(Br)ccc1-2 | EC50 |  | Ava5-EG(delta4AB)SEAP |  |  | reporter gene / fluorescence | 0.001–1 µM

ECn: concentration that inhibits the pathogen or its effect by n%. Fold resistance has wild type as its base. a–b is a range or a potency band. Inhibition is in % at the dose shown (toxicity tests: loss of growth or viability). An empty or dashed field is not shown.